PubChem BioAssay AID1224833, University of Georgia – 2016

Purpose: 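Host factors restraining rotavirus as candidate antiviral genes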 (primary screen)
Cell system: monkey MA104 kidney cells
Knock-down reagent: siRNA pool against human genes, 50 nM
Time to read-out: 48 h knock-down before infection; read 24 h after infection
Treatment: infection with rotavirus strain RV3 two days after transfection; infectious dose for this stage not given
Measured: 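Rotavirus antigen per well by fluorescent immunoassay, normalised to non-targeting control wells on each plate and given as a standard z-score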
Reading the numbers: z-score vs non-targeting control: higher = more rotavirus replication than with non-targeting control
Active means: In these data the active calls have z-score vs non-targeting control at about -1 or lower, or at about 1 or higher
Meaning of the calls: active = z-score beyond 1 either way; inactive = z-score within 1 of zero
Here is a random part of about 12,000 reagents. About 5,600 of them (46%) were called active. 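Active calls cover z-scores past 1 in both directions, so they include lowered as well as raised rotavirus replication.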 Entries without a mark were called inactive. Reagent sequences are not shown.

target gene | PubChem SID | z-score vs non-targeting control
CELF4 | SID329580064 | -1.21 (active)
NRAP | SID329574670 | -2.88 (active)
TAL2 | SID329575559 | 1.12 (active)
OR52B2 | SID329583728 | 1.55 (active)
LRRN4 | SID329583257 | -0.674
STARD3NL | SID329581483 | -0.66
GAS2L2 | SID329583661 | 1.6 (active)
EPSTI1 | SID329582150 | -1.15 (active)
ZNF677 | SID329584109 | -0.621
TBP | SID329575571 | -1.35 (active)
FABP4 | SID329573595 | -1.07 (active)
LSMEM1 | SID329583961 | -0.918
L3MBTL1 | SID329578269 | -0.925
LRRC8D | SID329579592 | 0.31
ALKBH2 | SID329582432 | 0.764
SLC4A1 | SID329575349 | 0.783
KCNIP3 | SID329578772 | 2.19 (active)
KIFBP | SID329578322 | -0.725
SEMA4A | SID329580597 | -0.348
PCLAF | SID329576781 | -2.46 (active)
RBBP4 | SID329575085 | 1.21 (active)
NKAIN4 | SID329582609 | 0.142
CCNB1IP1 | SID329580388 | -0.289
SOX12 | SID329575446 | -0.0535
B3GAT1 | SID329578486 | 0.653
PSMA2 | SID329574975 | 2.26 (active)
THAP8 | SID329583386 | -0.405
AMIGO2 | SID329584168 | 0.428
SLC17A2 | SID329577051 | -1.46 (active)
TMOD4 | SID329578679 | -0.622
USP42 | SID329581524 | -0.988
CTU2 | SID329584172 | -1.88 (active)
USP6 | SID329576423 | 1.43 (active)
RBFOX1 | SID329579364 | 1.17 (active)
LXN | SID329580092 | 0.167
NPRL3 | SID329576012 | -1.34 (active)
BRF2 | SID329579680 | -0.956
CSTPP1 | SID329580839 | 1.35 (active)
CLEC4F | SID329583267 | 1.09 (active)
TOR1B | SID329578589 | -0.244
KRT8 | SID329574241 | 1.27 (active)
DEDD | SID329576472 | -1.57 (active)
ZFX | SID329575846 | 1.96 (active)
LAMA1 | SID329583873 | 0.405
IGLL1 | SID329574125 | -1.14 (active)
SPATA20 | SID329580700 | 0.576
SUCLG2 | SID329576292 | -1.92 (active)
CREG1 | SID329576295 | -0.539
CNNM3 | SID329578391 | -0.871
BTF3L4 | SID329582004 | -2.07 (active)
PIGF | SID329574832 | -1.9 (active)
USP19 | SID329577395 | 1.18 (active)
YJU2B | SID329581322 | -1.42 (active)
TRAM2 | SID329576735 | -1.98 (active)
S100G | SID329572994 | 0.618
HTR1D | SID329574073 | 1.11 (active)
GPHB5 | SID329582453 | 0.305
NFATC3 | SID329574607 | -1 (active)
TUBA1A | SID329575954 | 1.14 (active)
PDE1A | SID329574773 | -2.64 (active)
SCUBE3 | SID329583631 | -1.08 (active)
NCF1 | SID329584704 | 2.28 (active)

18 entries already listed, arranged by “z-score vs non-targeting control”, ascending.
target gene | PubChem SID | z-score vs non-targeting control
PCLAF | SID329576781 | -2.46 (active)
TBP | SID329575571 | -1.35 (active)
EPSTI1 | SID329582150 | -1.15 (active)
FABP4 | SID329573595 | -1.07 (active)
L3MBTL1 | SID329578269 | -0.925
LSMEM1 | SID329583961 | -0.918
KIFBP | SID329578322 | -0.725
LRRN4 | SID329583257 | -0.674
STARD3NL | SID329581483 | -0.66
ZNF677 | SID329584109 | -0.621
SEMA4A | SID329580597 | -0.348
LRRC8D | SID329579592 | 0.31
ALKBH2 | SID329582432 | 0.764
SLC4A1 | SID329575349 | 0.783
TAL2 | SID329575559 | 1.12 (active)
OR52B2 | SID329583728 | 1.55 (active)
GAS2L2 | SID329583661 | 1.6 (active)
KCNIP3 | SID329578772 | 2.19 (active)

The results go on:
target gene | PubChem SID | z-score vs non-targeting control
LCN12 | SID329583976 | -2.48 (active)
ADGRF3 | SID329583263 | -0.716
PCDHA2 | SID329579995 | -0.19
HAVCR1 | SID329578444 | -2.37 (active)
ARL6IP4 | SID329579025 | 0.117
NAPG | SID329576281 | -2.23 (active)
ATP6V0E1 | SID329576370 | -1.74 (active)
XAF1 | SID329579372 | 0.15
MANEAL | SID329582990 | -0.883
NDUFAF5 | SID329580842 | 0.598
VEPH1 | SID329580949 | 1.21 (active)
DHX29 | SID329579299 | -0.995
HLA-DRB5 | SID329573973 | -1.45 (active)
IHO1 | SID329584060 | 1.5 (active)
TEX56P | SID329584529 | -0.476
MLH1 | SID329574452 | -0.847
HAPSTR1 | SID329578637 | 1.21 (active)
SLC4A3 | SID329575338 | 1.59 (active)
DYNC2I2 | SID329581910 | 1.28 (active)
CST11 | SID329582833 | -1.39 (active)
CRIP2 | SID329573256 | 0.808
POC5 | SID329582712 | -2.02 (active)
MTCP1 | SID329574502 | -1.88 (active)
CRMP1 | SID329573258 | 1.46 (active)
KLHL3 | SID329578356 | -0.552
NAPB | SID329580512 | -2.24 (active)
HNRNPU | SID329574007 | -1.34 (active)
CAPRIN1 | SID329574354 | -1.62 (active)
TLCD4 | SID329582980 | 2.15 (active)
FICD | SID329577567 | 0.536
FGF3 | SID329573634 | -1.13 (active)
C11orf65 | SID329583180 | -0.739
NET1 | SID329577072 | -0.479
SLC22A12 | SID329582288 | -2.21 (active)
IL5 | SID329574137 | -3.25 (active)
MRPL33 | SID329576654 | -1.23 (active)
EPS8L1 | SID329579437 | 0.201
DMRT3 | SID329580433 | -2.04 (active)
DYSF | SID329576046 | 1.49 (active)
FAM221A | SID329584069 | 0.892
DGAT2 | SID329581683 | 2.74 (active)
TMEM68 | SID329582746 | 1.31 (active)
PTBP3 | SID329576908 | -1.69 (active)
PSG7 | SID329574971 | -0.885
SS18L2 | SID329578956 | -0.798
RPL10A | SID329574589 | -1.28 (active)
CREB3L4 | SID329582975 | 1.38 (active)
MYOT | SID329576626 | -1.42 (active)
LRRTM2 | SID329578288 | -0.797
DOLK | SID329577675 | 0.776
ELOVL7 | SID329581111 | 0.556
SEC22A | SID329578451 | -0.188
MAGEA2B | SID329583794 | -2.93 (active)
HAND1 | SID329576588 | 1.95 (active)
SARNP | SID329581604 | 0.392
DIO2 | SID329573407 | 1.33 (active)
OR8H2 | SID329584393 | 0.0669
NAP1L4 | SID329574550 | -0.751
PDLIM7 | SID329576506 | 1.03 (active)
POU2F2 | SID329574910 | -1.65 (active)
PADI6 | SID329584197 | -1.66 (active)
SCAND1 | SID329578999 | -0.973
CHLSN | SID329581594 | 0.807
SPRED2 | SID329583414 | -0.257
WDR81 | SID329582507 | -0.641
ZNF562 | SID329579402 | 0.0167
LRWD1 | SID329583618 | -2.37 (active)
CPA3 | SID329573239 | 1.45 (active)
C19orf53 | SID329578618 | -0.999
CYP2C8 | SID329573338 | -1.73 (active)
FCN2 | SID329573624 | -0.194
RPL9 | SID329575157 | 0.757
AP1AR | SID329579721 | 1.03 (active)
CCDC198 | SID329579629 | -0.304
PDLIM2 | SID329580605 | 1.1 (active)
GLDC | SID329573774 | -0.901
LMCD1 | SID329578758 | -0.797
MSX1 | SID329574493 | -2.17 (active)
